Measured values from patent US20040209239.
For some assays here: Where a protein sequence is shown, tags need not be part of it. For some assays here: For at least one entry, the source does not settle the construct or the ends of the probe. For some assays here: Results from cells or extracts need not show a direct contact.

The chains behind the UniProt entries cited, without tags or fusion partners. Where a name states a change or a piece, a line headed by the entry shows the natural chain unless it says otherwise. Residues count along the entry.
UniProt Q15554, 43-542: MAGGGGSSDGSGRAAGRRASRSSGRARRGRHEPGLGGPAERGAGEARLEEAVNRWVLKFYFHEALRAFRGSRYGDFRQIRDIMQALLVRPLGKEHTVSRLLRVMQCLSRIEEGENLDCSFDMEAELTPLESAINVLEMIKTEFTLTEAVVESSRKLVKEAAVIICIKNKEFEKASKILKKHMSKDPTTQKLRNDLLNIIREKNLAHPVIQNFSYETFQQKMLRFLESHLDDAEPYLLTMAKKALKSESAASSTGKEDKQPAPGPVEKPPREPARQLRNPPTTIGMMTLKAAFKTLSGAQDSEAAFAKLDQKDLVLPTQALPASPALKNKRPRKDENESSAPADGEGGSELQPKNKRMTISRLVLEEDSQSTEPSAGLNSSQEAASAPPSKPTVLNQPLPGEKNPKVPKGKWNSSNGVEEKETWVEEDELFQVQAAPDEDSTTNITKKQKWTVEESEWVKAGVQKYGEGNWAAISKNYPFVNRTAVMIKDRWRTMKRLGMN
UniProt O95271: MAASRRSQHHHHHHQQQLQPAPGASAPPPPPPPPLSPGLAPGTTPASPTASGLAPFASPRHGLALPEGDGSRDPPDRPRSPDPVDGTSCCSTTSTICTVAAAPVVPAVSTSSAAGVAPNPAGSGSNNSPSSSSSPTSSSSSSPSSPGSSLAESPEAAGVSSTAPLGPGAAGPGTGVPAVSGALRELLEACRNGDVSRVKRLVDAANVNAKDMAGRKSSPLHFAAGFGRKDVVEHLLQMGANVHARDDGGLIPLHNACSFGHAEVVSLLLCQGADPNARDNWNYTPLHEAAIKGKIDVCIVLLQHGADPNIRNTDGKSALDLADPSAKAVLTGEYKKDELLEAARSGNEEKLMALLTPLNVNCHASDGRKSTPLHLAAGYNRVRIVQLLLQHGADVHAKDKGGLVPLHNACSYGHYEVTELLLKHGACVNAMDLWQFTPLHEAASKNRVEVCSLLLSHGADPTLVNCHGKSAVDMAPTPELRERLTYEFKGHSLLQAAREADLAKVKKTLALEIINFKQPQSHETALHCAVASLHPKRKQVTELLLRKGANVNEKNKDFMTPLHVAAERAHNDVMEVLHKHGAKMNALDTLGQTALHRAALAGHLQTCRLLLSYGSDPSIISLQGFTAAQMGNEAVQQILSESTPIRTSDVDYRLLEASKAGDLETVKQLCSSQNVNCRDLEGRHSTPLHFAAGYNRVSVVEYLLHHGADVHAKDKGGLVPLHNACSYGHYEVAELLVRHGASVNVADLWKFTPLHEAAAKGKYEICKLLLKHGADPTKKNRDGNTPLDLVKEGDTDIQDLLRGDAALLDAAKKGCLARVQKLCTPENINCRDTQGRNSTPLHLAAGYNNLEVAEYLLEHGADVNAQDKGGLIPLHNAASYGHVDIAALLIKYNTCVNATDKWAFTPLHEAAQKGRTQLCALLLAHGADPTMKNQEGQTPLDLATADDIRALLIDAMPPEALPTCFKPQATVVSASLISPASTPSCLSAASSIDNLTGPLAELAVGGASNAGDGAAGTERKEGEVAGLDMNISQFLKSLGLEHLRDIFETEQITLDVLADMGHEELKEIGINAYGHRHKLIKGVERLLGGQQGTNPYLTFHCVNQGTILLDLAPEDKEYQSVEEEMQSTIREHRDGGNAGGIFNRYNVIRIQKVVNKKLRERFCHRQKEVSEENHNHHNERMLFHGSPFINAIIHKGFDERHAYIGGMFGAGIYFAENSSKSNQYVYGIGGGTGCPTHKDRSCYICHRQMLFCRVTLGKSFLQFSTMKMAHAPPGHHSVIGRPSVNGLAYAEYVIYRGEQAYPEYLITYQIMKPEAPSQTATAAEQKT
UniProt P09874, 2-1014: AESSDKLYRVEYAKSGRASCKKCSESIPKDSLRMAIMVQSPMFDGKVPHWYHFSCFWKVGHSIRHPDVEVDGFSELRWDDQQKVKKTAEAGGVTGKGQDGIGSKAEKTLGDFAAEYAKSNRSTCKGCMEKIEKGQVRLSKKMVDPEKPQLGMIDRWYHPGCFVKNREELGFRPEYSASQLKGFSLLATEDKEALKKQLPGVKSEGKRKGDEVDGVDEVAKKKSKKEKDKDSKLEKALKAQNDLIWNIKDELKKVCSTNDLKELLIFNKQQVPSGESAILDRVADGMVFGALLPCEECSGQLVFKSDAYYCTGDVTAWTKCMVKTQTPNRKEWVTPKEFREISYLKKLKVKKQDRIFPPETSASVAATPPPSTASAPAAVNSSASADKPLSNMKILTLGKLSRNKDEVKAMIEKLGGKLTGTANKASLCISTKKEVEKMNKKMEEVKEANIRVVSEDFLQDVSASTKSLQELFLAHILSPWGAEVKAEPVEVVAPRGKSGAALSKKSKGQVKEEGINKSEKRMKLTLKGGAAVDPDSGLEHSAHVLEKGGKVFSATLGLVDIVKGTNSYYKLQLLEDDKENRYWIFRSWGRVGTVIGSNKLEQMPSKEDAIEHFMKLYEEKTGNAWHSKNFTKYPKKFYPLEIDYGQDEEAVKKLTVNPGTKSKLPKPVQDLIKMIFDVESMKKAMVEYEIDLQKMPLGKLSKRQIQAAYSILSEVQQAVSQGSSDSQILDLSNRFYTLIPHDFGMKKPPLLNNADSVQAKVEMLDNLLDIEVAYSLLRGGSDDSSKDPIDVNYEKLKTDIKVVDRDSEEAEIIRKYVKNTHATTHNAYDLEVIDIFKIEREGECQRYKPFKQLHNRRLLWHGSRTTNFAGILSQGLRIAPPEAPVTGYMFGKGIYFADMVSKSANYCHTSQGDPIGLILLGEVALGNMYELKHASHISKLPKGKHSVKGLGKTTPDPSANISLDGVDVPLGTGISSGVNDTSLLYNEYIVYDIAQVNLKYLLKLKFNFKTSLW

Columns and labels:
[1] = biological target: T1, hRAP1 (Raji cells) (Homo sapiens) (UniProt Q9NYB0); test: binding assay; conditions: ChIP in Raji cells; OriP, amplicon for this experiment not stated; protein in cells
T1 sequence (looked up, limits assumed): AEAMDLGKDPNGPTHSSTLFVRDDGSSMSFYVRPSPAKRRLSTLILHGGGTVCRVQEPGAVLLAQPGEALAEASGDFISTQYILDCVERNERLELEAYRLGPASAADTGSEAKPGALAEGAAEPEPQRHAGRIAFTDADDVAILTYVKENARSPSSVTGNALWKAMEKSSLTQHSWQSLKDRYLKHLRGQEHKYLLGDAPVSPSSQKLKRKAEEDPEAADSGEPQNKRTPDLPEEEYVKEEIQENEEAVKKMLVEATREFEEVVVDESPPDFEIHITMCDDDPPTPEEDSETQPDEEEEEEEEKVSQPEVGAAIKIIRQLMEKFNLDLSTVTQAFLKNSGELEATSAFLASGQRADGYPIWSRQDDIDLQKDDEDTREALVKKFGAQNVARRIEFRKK

[2] = biological target: T2, EBNA1 (Raji cells) (Epstein-Barr virus) (UniProt P03211); test: binding assay; conditions: ChIP in Raji cells; protein in cells
T2 sequence (looked up, limits assumed): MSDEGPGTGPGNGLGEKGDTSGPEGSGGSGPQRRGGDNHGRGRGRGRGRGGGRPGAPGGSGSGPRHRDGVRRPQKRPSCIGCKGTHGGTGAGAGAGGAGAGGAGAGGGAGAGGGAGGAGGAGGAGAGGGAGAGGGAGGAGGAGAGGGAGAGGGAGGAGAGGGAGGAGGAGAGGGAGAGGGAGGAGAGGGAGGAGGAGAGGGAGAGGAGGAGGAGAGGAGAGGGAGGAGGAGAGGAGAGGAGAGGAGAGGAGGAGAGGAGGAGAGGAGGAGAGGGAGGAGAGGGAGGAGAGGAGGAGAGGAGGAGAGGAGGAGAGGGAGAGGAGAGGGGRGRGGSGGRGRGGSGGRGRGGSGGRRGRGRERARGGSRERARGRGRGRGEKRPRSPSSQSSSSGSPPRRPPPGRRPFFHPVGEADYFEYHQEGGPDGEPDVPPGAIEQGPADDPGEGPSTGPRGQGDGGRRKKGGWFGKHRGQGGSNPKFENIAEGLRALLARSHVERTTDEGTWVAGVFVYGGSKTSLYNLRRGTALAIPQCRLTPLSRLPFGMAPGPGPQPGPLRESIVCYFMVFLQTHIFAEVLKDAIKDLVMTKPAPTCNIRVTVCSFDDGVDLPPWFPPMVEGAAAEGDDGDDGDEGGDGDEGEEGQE

[3] = biological target: TRF2 (Raji cells) (Homo sapiens) (UniProt Q15554); test: binding assay; conditions: ChIP in Raji cells; lower efficiency than EBNA1; protein in cells
[4] = biological target: T3, TRF1 (Raji cells) (Homo sapiens) (UniProt P54274); test: binding assay; conditions: ChIP in Raji cells; OriP, amplicon for this experiment not stated; protein in cells
T3 sequence (looked up, limits assumed): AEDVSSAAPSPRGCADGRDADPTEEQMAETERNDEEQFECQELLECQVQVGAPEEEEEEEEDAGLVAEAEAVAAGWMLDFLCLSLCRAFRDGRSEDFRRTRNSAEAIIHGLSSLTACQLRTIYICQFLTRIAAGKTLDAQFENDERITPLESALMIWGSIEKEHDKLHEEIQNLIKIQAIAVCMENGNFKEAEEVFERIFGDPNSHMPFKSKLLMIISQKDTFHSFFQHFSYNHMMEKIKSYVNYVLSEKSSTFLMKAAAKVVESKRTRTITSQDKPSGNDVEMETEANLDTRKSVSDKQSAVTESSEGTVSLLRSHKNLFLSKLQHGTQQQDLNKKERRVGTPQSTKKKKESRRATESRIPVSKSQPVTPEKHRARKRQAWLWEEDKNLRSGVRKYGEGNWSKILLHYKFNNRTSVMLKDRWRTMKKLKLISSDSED

[5] = biological target: Tankyrase (Raji cells) (Homo sapiens) (UniProt O95271); test: binding assay; conditions: ChIP in Raji cells; likely indirect; protein in cells
[6] = biological target: T4, EBNA1 (Epstein-Barr virus) (UniProt P03211); test: footprint; conditions: DNase I; four sites, induces hypersensitivity at nonamers; purified recombinant protein; protein details: baculovirus-expressed in SF9
T4 sequence (looked up, limits assumed): T2 sequence (looked up, limits assumed)

Tankyrase (Homo sapiens) = Tankyrase (Homo sapiens) (UniProt O95271); test: pull-down; conditions: only with EBNA1; stable to 300 mM KCl; likely indirect; protein in an extract; protein details: GenBank id from MS/MS
[7] = biological target: T5, hRAP1 (TRF2-interacting telomeric RAP1) (Homo sapiens) (UniProt Q9NYB0); test: pull-down; conditions: SL1 and Raji extracts; interacts with TRF2; protein in an extract; protein details: GenBank id from MS/MS
T5 sequence (looked up, limits assumed): T1 sequence (looked up, limits assumed)

[8] = biological target: TRF2 (nuclear extract) (Homo sapiens) (UniProt Q15554); test: pull-down; conditions: weak without EBNA1 (HeLa, low salt), stabilized by EBNA1; protein in an extract; protein details: GenBank id from MS/MS
PARP1 (Homo sapiens) = PARP1 (Homo sapiens) (UniProt P09874); test: pull-down; conditions: equal with or without EBNA1 in single round; protein in an extract; protein details: GenBank id from MS/MS
TRF1 (Homo sapiens) = biological target: T6, TRF1 (Homo sapiens) (UniProt P54274); test: pull-down; conditions: EBNA1-dependent; SL1 and Raji extracts; protein in an extract
T6 sequence (looked up, limits assumed): T3 sequence (looked up, limits assumed)

Measured: binding result

GAGATGGACATCCAGTCTTTACGGCTTGTCCCCACCCCATGGATTTCTATTGTTAAAGATATTCAGAATGTTTCATTCCTACACTAGTATTTATTGCCCAAGGGGTTTGTGAGGGTTATATTGGTGTCATAGCACAATGCCACCACTGAACCCCCCGTCCAAATTTTATTCTGGGGGCGTCACCTGAAACCTTGTTTTCGAGCACCTCACATACACCTTACTGTTCACAACTCAGCAGTTATTCTATTAGCTAAACGAAGGAGAATGAAGAAGCAGGCGAAGATTCAGGAGAGTTCACTGCCCGCTCCTTGATCTTCAGCCACTGCCCTTGTGACTAAAATGGTTCACTACCCTCGTGGAATCCTGACCCCATGTAAATAAAACCGTGACAGCTCATGGGGTGGGAGATATCGCTGTTCCTTAGGACCCTTTTACTAACCCTAATTCGATAGCATATGCTTCCCGTTGGGTAACATATGCTATTGAATTAGGGTTAGTCTGGATAGTATATACTACTACCCGGGAAGCATATGCTACCCGTTTAGGGTTAACAAGGGGGCCTTATAAACACTATTGCTAATGCCCTCTTGAGGGTCCGCTTATCGGTAGCTACACAGGCCC (double strand) [EBV oriP DS region ChIP amplicon (nt 8586-9206)]
binds: [1] | [2] | [3] | [4] | [5]

AACCCTAATTCGATAGCATATGCTTCCCGTTGGGTAACATATGCTATTGAATTAGGGTTAGTCTGGATAGTATATACTACTACCCGGGAAGCATATGCTACCCGTTTAGGGTTA (double strand) [EBV oriP Dyad Symmetry (DS) element]
binds: [6] | Tankyrase (Homo sapiens) | [7] | [8] | PARP1 (Homo sapiens) | TRF1 (Homo sapiens)
